Measurements taken from patent US20070276049A1 (priority 2003, published 2007).

Experiments:
S. aureus MN8 = format: cell-based
N. gonorrhoeae = format: cell-based

**Q.** What does the source list for CCCCCCCCCCCC(=O)OCC(O)CO (stereo not drawn) [GML, glycerol monolaurate]?
**A.** bacteria in epithelial cells pre-treated with GML (S. aureus MN8): no bacteria were detectable; Average colony forming units from two wells (N. gonorrhoeae): <10 colony forming units; bacteria in GML treated cells (N. gonorrhoeae): no detectable bacteria
